Assay results taken from ChEMBL document CHEMBL4011630 (J Med Chem, 2017).

Organism: Rattus norvegicus
Experiment: Selectivity ratio of IC50 for rat alpha6/alpha3beta4 nACHR expressed in xenopous laevis oocyte to IC50 for rat alpha3beta4 nACHR expressed in xenopous laevis oocyte

CC(C)C[C@@H]1NC(=O)[C@H](CCC(=O)O)NC(=O)[C@@H]2CCCN2C(=O)[C@H](Cc2cnc[nH]2)NC(=O)[C@H](CC(N)=O)NC(=O)[C@H](C(C)C)NC(=O)[C@H](CO)NC(=O)[C@@H]2CSSC[C@H](NC(=O)CN)C(=O)N[C@@H](CSSC[C@@H](C(N)=O)NC1=O)C(=O)N[C@@H](CO)C(=O)N[C@@H](Cc1cnc[nH]1)C(=O)N1CCC[C@H]1C(=O)N[C@@H](C)C(=O)N2
Ratio IC50: 0.099
